The subject of the assay is PGCLCs induced from BVSCVR ESC (XX). Put plainly: BVSC and VR expression by FACS in cultured PGCLC. It is filed as cell-based, mouse. The settings on record: added at c3, read at c9; varying concentrations. As to the method: The PGC/PGCLC expansion medium was constituted of 10% KSR, 2.5% FBS, 0.1 mM NEAA, 1 mM sodium pyruvate, 2 mM L-glutamine, 0.1 mM 2-mercaptoethanol, 100 U/ml penicillin, 0.1 mg/ml […] streptomycin, […] forskolin, and 10 μM rolipram. The entire medium was changed every 2 days from c3. Cytokines/compounds for induction of female fate were provided from c3 to the end of culture. RA and BMP concentrations used were 100 nM and 300 ng/ml, respectively, unless otherwise specified. Brightfield and fluorescence images were captured using an IX73 inverted microscope (Olympus).
The preparation of d4/c0 PGCLC for FACS is described in “ESC culture/induction and PGCLC induction/culture”. To isolate germ cells in vivo, fetal gonads of BVSC, VR or SG mice were cut and processed for FACS according to the procedure described for d4/c0 PGCLC. Culture PGCLC was also prepared by the same method except that, after dissociation, the cells were washed with 0.1% BSA-DMEM containing 100 μg/ml DNase (Sigma-Aldrich), lysed DNA from dead cells was digested to prevent the formation of cell/debris clumps. Fluorescent activity of BV/SG, SC, or DT/VR was detected with FITC, Horizon V500 or PE-Texas Red channels, respectively. FACS data was analyzed using FlowJo or FACS Diva software package.
(In flow cytometry, cells or beads pass a laser one at a time.)

“BMP2: bone morphogenetic protein 2 cytokine (R&D Systems)”: the “BVSC and VR expression” value was “down-regulated BV and activated VR”.
